Kd data for one molecule are collected here from paper PMC6700223 (Frontiers in Microbiology, 2019).

Protein sequences, listed by entry. Tags and fused reporters are not part of them. Residues count along the entry.
UniProt P08669, 296-345 limits assumed: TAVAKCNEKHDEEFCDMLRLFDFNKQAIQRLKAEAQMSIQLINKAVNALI

The structures appear in SMILES notation.

This experiment deals with HR1-1 peptide (HR1 domain of LASV GP2) (Lassa virus, UniProt P08669). The experiment in a line: Biolayer interferometry (BLI) binding of HR2-derived peptides to immobilized HR1-1 peptide. The settings on record: Octet RED96, SSA biosensor, immobilized molecule HR1-1, mobile phase 30, 15, 7.5, 3.75 μM, association 300 s, dissociation 600 s.

Consider `CC[C@H](C)[C@H](NC(=O)[C@H](CC(=O)O)NC(=O)[C@H](CC(=O)O)NC(=O)[C@H](CO)NC(=O)[C@H](Cc1ccccc1)NC(=O)[C@H](Cc1c[nH]cn1)NC(=O)[C@@H](N)[C@@H](C)O)C(=O)N[C@@H](CCC(=O)O)C(=O)N[C@@H](CCC(N)=O)C(=O)N[C@@H](CCC(N)=O)C(=O)N[C@@H](C)C(=O)N[C@@H](CC(=O)O)C(=O)N[C@@H](CC(N)=O)C(=O)N[C@@H](CCSC)C(=O)N[C@H](C(=O)N[C@H](C(=O)N[C@@H](CCC(=O)O)C(=O)N[C@@H](CCSC)C(=O)N[C@@H](CC(C)C)C(=O)N[C@@H](CCC(N)=O)C(=O)N[C@@H](CCCCN)C(=O)N[C@@H](CCC(=O)O)C(=O)N[C@@H](Cc1ccc(O)cc1)C(=O)N[C@@H](CCSC)C(=O)N[C@@H](CCC(=O)O)C(=O)O)[C@@H](C)O)[C@@H](C)CC` [HR2-3], for which the Kd turned out to be 66.9 µM.

As a reminder, the Kd is the equilibrium constant for the complex coming apart.
